RC index of single-base changes in HIV-1 non-coding ends

Positions lie in the non-coding 5' end or the 3' LTR of the genome. Changes in the 5' U3 are not copied into viral RNA and those in the 3' R are mostly lost on reverse transcription, so a low index there need not show harm (not discussed in the paper).

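Random point mutant libraries of HIV-1 NL4-3, one for each of seven fragments, were passaged in CEM T lymphocytes. The RC index is the frequency of a change after passage round 2 divided by its frequency in the plasmid library.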

A higher RC index is a better tolerated change; approximate classes are lethal up to 0.1, attenuated to 0.2, tolerated above. Input reads are the counts in the plasmid library. An index over 1, which the authors read as above wild type, was rare (1.9% of all changes in the genome).

{"base": "A9424T", "region": "3' U3", "input reads": "558", "replication capacity index": 0.893}
{"base": "G9425A", "region": "3' U3", "input reads": "170", "replication capacity index": 1.23}
{"base": "G9426A", "region": "3' U3", "input reads": "257", "replication capacity index": 0.309}
{"base": "A9428G", "region": "3' U3", "input reads": "214", "replication capacity index": 0.379}
{"base": "C9429A", "region": "3' U3", "input reads": "73", "replication capacity index": 0.578}
{"base": "C9429T", "region": "3' U3", "input reads": "206", "replication capacity index": 0.492}
{"base": "T9430A", "region": "3' U3", "input reads": "313", "replication capacity index": 0.799}
{"base": "T9430C", "region": "3' U3", "input reads": "253", "replication capacity index": 0.454}
{"base": "T9431A", "region": "3' U3", "input reads": "196", "replication capacity index": 0.207}
{"base": "T9432C", "region": "3' U3", "input reads": "292", "replication capacity index": 0.492}
{"base": "C9433A", "region": "3' U3", "input reads": "106", "replication capacity index": 0.542}
{"base": "C9433T", "region": "3' U3", "input reads": "186", "replication capacity index": 0.318}
{"base": "C9434A", "region": "3' U3", "input reads": "330", "replication capacity index": 0.573}
{"base": "C9434T", "region": "3' U3", "input reads": "329", "replication capacity index": 0.549}
{"base": "G9435A", "region": "3' U3", "input reads": "547", "replication capacity index": 1.03}
{"base": "G9435C", "region": "3' U3", "input reads": "103", "replication capacity index": 0.295}
{"base": "G9435T", "region": "3' U3", "input reads": "144", "replication capacity index": 0.551}
{"base": "T9437A", "region": "3' U3", "input reads": "566", "replication capacity index": 0.877}
{"base": "T9437G", "region": "3' U3", "input reads": "108", "replication capacity index": 0.751}
{"base": "G9438T", "region": "3' U3", "input reads": "146", "replication capacity index": 0.590}
{"base": "G9439A", "region": "3' U3", "input reads": "252", "replication capacity index": 0.784}
{"base": "G9440A", "region": "3' U3", "input reads": "280", "replication capacity index": 0.440}
{"base": "G9441A", "region": "3' U3", "input reads": "309", "replication capacity index": 0.519}
{"base": "A9442G", "region": "3' U3", "input reads": "436", "replication capacity index": 0.581}
{"base": "C9443A", "region": "3' U3", "input reads": "105", "replication capacity index": 0.933}
{"base": "C9443G", "region": "3' U3", "input reads": "86", "replication capacity index": 0.373}
{"base": "C9443T", "region": "3' U3", "input reads": "292", "replication capacity index": 0.422}
{"base": "T9444A", "region": "3' U3", "input reads": "246", "replication capacity index": 0.611}
{"base": "T9444C", "region": "3' U3", "input reads": "275", "replication capacity index": 0.559}
{"base": "T9444G", "region": "3' U3", "input reads": "112", "replication capacity index": 0.181}
{"base": "T9445A", "region": "3' U3", "input reads": "195", "replication capacity index": 0.546}
{"base": "T9445C", "region": "3' U3", "input reads": "356", "replication capacity index": 0.764}
{"base": "T9445G", "region": "3' U3", "input reads": "51", "replication capacity index": 0.497}
{"base": "T9446A", "region": "3' U3", "input reads": "363", "replication capacity index": 0.465}
{"base": "T9446G", "region": "3' U3", "input reads": "34", "replication capacity index": 0.199}
{"base": "C9448A", "region": "3' U3", "input reads": "280", "replication capacity index": 0.398}
{"base": "G9451T", "region": "3' U3", "input reads": "326", "replication capacity index": 0.539}
{"base": "G9452T", "region": "3' U3", "input reads": "142", "replication capacity index": 0.0951}

Since each clone held several changes (about five per kb), neutral changes can read low. Nucleotide positions follow pNL4-3.

The measurements come from Al-Mawsawi et al. 2014 (doi:10.1186/s12977-014-0124-6).